# Results published in patent publication US20060115815A1 (priority 2002, published 2006).
# Like-named read-outs stand apart in the source and are kept apart here.
# Legend:
# [1] = tested on: mutant HIV-1 with M46I/I47V/I50V mutations in the protease gene (I50V #1)
# [2] = tested on: mutant HIV-1 with L10I/M46I/I50V mutations in the protease gene (I50V #2); details: fold difference in EC50, mutant vs. wild type
# [3] = fold difference in EC50, mutant vs. wild type
SMILES,"I50V (#1) fold change [1, 3]",I50V (#1) fold change ([1]; I50V (#1) mutant),further results
CCOC(=O)C(C)OP(=O)(Oc1ccccc1)c1ccc(CN(C)CC(NC(=O)OC2COC3OCCC23)C(O)CN(CC(C)C)S(=O)(=O)c2ccc(OC)cc2)cc1 (stereo not shown),++ (>10 to ≦30),–,–
CCOP(=O)(Cc1ccc2c(c1)CCN(CC(NC(=O)OC1COC3OCCC13)C(O)CN(CC(C)C)S(=O)(=O)c1ccc(OC)cc1)C2)OCC (stereo not shown),+ (>3 to ≦10),–,–
CCOC(=O)C(C)OP(=O)(Cc1ccc2c(c1)CCN(C[C@H](NC(=O)O[C@H]1CO[C@H]3OCC[C@H]31)[C@H](O)CN(CC(C)C)S(=O)(=O)c1ccc(OC)cc1)C2)Oc1ccccc1 (stereo partly shown),+ (>3 to ≦10),–,–
CCOC(=O)C(C)OP(=O)(COc1ccc2c(c1)CCN(CC(NC(=O)OC1COC3OCCC13)C(O)CN(CC(C)C)S(=O)(=O)c1ccc(OC)cc1)C2)Oc1ccccc1 (stereo not shown),+ (>3 to ≦10),–,–
COc1ccc(S(=O)(=O)N(CC(C)C)CC(O)C(Cc2ccc(NCP(=O)(OCc3ccccc3)OCc3ccccc3)cc2)NC(=O)OC2COC3OCCC23)cc1 (stereo not shown),+ (>3 to ≦10),–,–
COc1ccc(S(=O)(=O)N(CC(C)C)CC(O)C(Cc2ccc(C)cc2)NC(=O)OC2COC3OCCC23)cc1 (stereo not shown),–,++ (>10 to ≦30),–
COc1ccc(S(=O)(=O)N(CCN2CCOCC2)CC(O)C(Cc2ccc(OCP(=O)(O)O)cc2)NC(=O)OC2COC3OCCC23)cc1 (stereo not shown),–,+ (>3 to ≦10),–
COc1ccc(S(=O)(=O)N(CCN2CCOCC2)CC(O)C(Cc2ccc(OCP(=O)(OCc3ccccc3)OCc3ccccc3)cc2)NC(=O)OC2COC3OCCC23)cc1 (stereo not shown),–,+ (>3 to ≦10),–
COc1ccc(S(=O)(=O)N(Cc2ccccc2)CC(O)C(Cc2ccccc2)NC(=O)OC2COC3OCCC23)cc1 (stereo not shown),–,+++ (>30),–
COc1ccc(S(=O)(=O)N(CC(O)C(Cc2ccccc2)NC(=O)OC2COC3OCCC23)CC(C)(C)CO)cc1 (stereo not shown),–,+++ (>30),–
Cc1cccc(C)c1OCC(=O)N[C@@H](Cc1ccc(OCP(=O)(Oc2ccccc2)Oc2ccccc2)cc1)[C@H](O)CN(CC(C)C)S(=O)(=O)c1ccc(N)cc1,–,+++ (>30),–
Cc1ccc(C(=O)N[C@@H](Cc2ccc(OCP(=O)(Oc3ccccc3)Oc3ccccc3)cc2)[C@H](O)CN(CC(C)C)S(=O)(=O)c2ccc(N)cc2)cc1O,–,+++ (>30),–
CC(C)CN(CC(O)C(Cc1ccc(OCP(=O)(O)O)cc1)NC(=O)OC1COC2OCCC12)S(=O)(=O)c1ccc(N)cc1 (stereo not shown),–,+ (>3 to ≦10),–
CCOC(=O)C(C)OP(=O)(COc1ccc(C[C@H](NC(=O)O[C@H]2CO[C@H]3OCC[C@H]32)[C@H](O)CN(CC(C)C)S(=O)(=O)c2ccccc2)cc1)Oc1ccccc1 (stereo partly shown),–,+ (>3 to ≦10),–
CCOC(=O)C(C)OP(=O)(COc1ccc(C[C@H](NC(=O)O[C@H]2CO[C@H]3OCC[C@H]32)[C@H](O)CN(CC(C)C)S(=O)(=O)c2ccc(F)cc2)cc1)Oc1ccccc1 (stereo partly shown),–,+ (>3 to ≦10),–
CC(C)CN(C[C@@H](O)[C@H](Cc1ccc(OCP(=O)(OCc2ccccc2)OC(C)C(=O)OCc2ccccc2)cc1)NC(=O)O[C@H]1CO[C@H]2OCC[C@H]21)S(=O)(=O)c1ccc(F)cc1 (stereo partly shown),–,+ (>3 to ≦10),–
CC(C)CN(CC(O)C(Cc1ccccc1)NC(=O)OC1COC2OCCC12)S(=O)(=O)c1cccc(O)c1 (stereo not shown),–,+ (>3 to ≦10),–
COc1ccc(S(=O)(=O)N(CC(C)C)CC(O)C(Cc2ccccc2)NC(=O)OC2COC3OCCC23)cc1OCP(=O)(O)O (stereo not shown),–,+ (>3 to ≦10),–
CCOP(=O)(COc1cc(S(=O)(=O)N(CC(C)C)CC(O)C(Cc2ccccc2)NC(=O)OC2COC3OCCC23)ccc1OC)OCC (stereo not shown),–,+ (>3 to ≦10),–
CCOP(=O)(COc1cc(S(=O)(=O)N(CC(C)C)CC(O)C(Cc2ccccc2)NC(=O)OC2COC3OCCC23)ccc1O)OCC (stereo not shown),–,+ (>3 to ≦10),–
"CCOC(=O)C(C)OP(=O)(CCNc1ccc(CC(NC(=O)OC2COC3OCCC23)C(O)CN(CC(C)C)S(=O)(=O)c2ccc(OC)cc2)cc1)Oc1ccccc1 (single isomer, unassigned) [drawing 706]",++ (>10 to ≦30),–,–
Cc1cccc(C)c1OCC(=O)N[C@@H](Cc1ccccc1)[C@@H](O)C[C@H](Cc1ccccc1)NC(=O)[C@H](C(C)C)N1CCCNC1=O [Lopinavir],–,–,I50V (#2) fold change [2]: +++ (>30)
CCOP(=O)(Cc1ccc(CC(NC(=O)OC2COC3OCCC23)C(O)CN(CC(C)C)S(=O)(=O)c2ccc(OC)cc2)cc1)OCC (stereo not shown) [drawing 654 R1=OE R2=OE],+ (>3 to ≦10),–,–
CCCCOC(=O)C(CC(C)C)NP(=O)(COc1ccc(CC(NC(=O)OC2COC3OCCC23)C(O)CN(CC(C)C)S(=O)(=O)c2ccc(OC)cc2)cc1)NC(CC(C)C)C(=O)OCCCC (stereo not shown) [drawing 655 R1=Leu-Bu R2=Leu-Bu],+ (>3 to ≦10),–,–
COc1ccc(S(=O)(=O)N(CC(C)C)CC(O)C(Cc2ccc(CNCCP(=O)(O)O)cc2)NC(=O)OC2COC3OCCC23)cc1 (stereo not shown) [drawing 662 R1=H R2=H],–,–,I50V (#2) fold change [2]: + (>3 to ≦10)
CCOC(=O)C(CC)NP(=O)(CCNCc1ccc(C[C@H](NC(=O)O[C@H]2CO[C@H]3OCC[C@H]32)[C@H](O)CN(CC(C)C)S(=O)(=O)c2ccc(OC)cc2)cc1)Oc1ccccc1 (stereo partly shown) [drawing 662 R1=Ph R2=Aba-Et],–,–,I50V (#2) fold change [2]: + (>3 to ≦10)
CCOC(=O)C(CC)OP(=O)(CCNCc1ccc(C[C@H](NC(=O)O[C@H]2CO[C@H]3OCC[C@H]32)[C@H](O)CN(CC(C)C)S(=O)(=O)c2ccc(OC)cc2)cc1)Oc1ccccc1 (stereo partly shown) [drawing 662 R1=Ph R2=Hba-Et],–,–,I50V (#2) fold change [2]: ++ (>10 to ≦30)
CCOC(=O)C(C)OP(=O)(CCN(C)Cc1ccc(CC(NC(=O)OC2COC3OCCC23)C(O)CN(CC(C)C)S(=O)(=O)c2ccc(OC)cc2)cc1)Oc1ccccc1 (stereo not shown) [drawing 663 R1=Ph R2=Lac-Et],+ (>3 to ≦10),–,–
